The values that follow are results of earlier work, collected in patent US9867795B2, “Nitrated lipids and methods of making and using thereof” (The UAB Research Foundation, priority 2004, dated 2018).

For this data set the following is noted: human blood; literature refs 35, 36; cited from earlier work.

On to nitrosothiols [RSNO], for which the Concentration in plasma was 7.2 ± 1.1 nM.
